Source: PMC9320654, “Study on In Vitro Metabolism and In Vivo Pharmacokinetics of Beauvericin” (Toxins, 2022)

Chains of the proteins cited; added tags and fusions are not shown. Residues count along the entry.
UniProt P08684, 2-503: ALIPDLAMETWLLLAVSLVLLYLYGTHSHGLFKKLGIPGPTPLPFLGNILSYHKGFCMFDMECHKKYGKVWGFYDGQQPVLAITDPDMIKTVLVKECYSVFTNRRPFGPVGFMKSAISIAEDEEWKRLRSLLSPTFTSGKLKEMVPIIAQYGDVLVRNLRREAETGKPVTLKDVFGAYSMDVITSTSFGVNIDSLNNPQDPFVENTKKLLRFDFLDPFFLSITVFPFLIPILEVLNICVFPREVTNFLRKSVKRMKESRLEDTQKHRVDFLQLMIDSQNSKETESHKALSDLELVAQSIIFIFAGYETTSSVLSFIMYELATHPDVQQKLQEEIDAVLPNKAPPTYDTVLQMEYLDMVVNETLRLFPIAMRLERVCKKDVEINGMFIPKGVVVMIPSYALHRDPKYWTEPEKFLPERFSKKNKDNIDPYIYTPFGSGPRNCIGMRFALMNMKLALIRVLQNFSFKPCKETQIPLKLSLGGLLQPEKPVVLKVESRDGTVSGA
UniProt P33261, whole entry: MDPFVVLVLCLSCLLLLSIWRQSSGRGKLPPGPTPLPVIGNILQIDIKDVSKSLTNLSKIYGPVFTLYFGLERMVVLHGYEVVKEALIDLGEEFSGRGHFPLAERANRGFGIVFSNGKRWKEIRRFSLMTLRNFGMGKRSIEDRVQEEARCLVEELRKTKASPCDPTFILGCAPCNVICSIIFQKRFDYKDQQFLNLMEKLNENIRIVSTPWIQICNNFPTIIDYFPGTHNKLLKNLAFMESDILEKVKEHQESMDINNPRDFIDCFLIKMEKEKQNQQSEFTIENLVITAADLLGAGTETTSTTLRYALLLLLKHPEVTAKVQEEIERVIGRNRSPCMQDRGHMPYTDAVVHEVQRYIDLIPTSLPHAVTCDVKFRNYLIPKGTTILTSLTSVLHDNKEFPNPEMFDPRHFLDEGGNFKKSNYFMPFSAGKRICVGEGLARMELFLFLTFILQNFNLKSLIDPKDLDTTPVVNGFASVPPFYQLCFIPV

Assays:
CYP3A4 = CYP3A4 (Homo sapiens, UniProt P08684); assay: CYP inhibition evaluation in human liver microsomes, CYP3A4 (midazolam); conditions: HLMs
[1] = Metabolic stability in cryopreserved hepatocytes, monkey; assay type: in vitro ADME, cynomolgus monkey
Protocol: (§1) BEA (10 mM) was incubated in duplicate in a 96-well plate containing a suspension of mouse, rat, monkey, dog, or human hepatocytes (0.5 × 10^6 cells/mL) at 37 °C for 1.5 h in a controlled atmosphere (5% CO2, 95% humidified incubator). BEA and the control were prepared with 50 μL of DMSO and 450 μL of acetonitrile (ACN) to achieve a final concentration of 1 μM, and then spiked into each well of 96-well plates in duplicates. Samples were withdrawn from the reaction mixture at 0, 15, 30, 60, and 90 min and were quenched with stop solution (acetonitrile containing 200 ng/mL tolbutamide and 200 ng/mL labetalol as internal standards). A cocktail of 7-ethoxycoumarin (Lot#: I1825085) was used as the positive control for the assay. The analytical plates were sealed and stored at 4 °C until LC-MS/MS analysis. The data obtained from the BEA metabolic stability assays were used to calculate the intrinsic clearance and remaining percentages, as described in Table 4 and Figure 4.
(§2) The remaining percentages of test articles after incubation were calculated by the following equations:(7) %Remainingat Appointed Time=Peak Area Ratios of Test Article versus Internal Standard at Appointed Time/Peak Area Ratios of Test Article versus Internal Standard 0 min
(§3) We used the equation of first order kinetics to calculate T1/2 and CLint:
(§4) Equation of first-order kinetics:(8) Ct=C0·e^−k·t when Ct=1/2C0,T1/2=ln2/k=0.693/k (9) CLint hep=k/million cells per mL (10) CLint liver=CLint hep×Liver weight g/kg body weight×hepatocellularity

[2] = Metabolite identification by LC-UV-MS^n in dog liver microsomes; assay type: in vitro ADME; parameters: key: +: metabolite was detected in liver microsomes; -: metabolite was detected in liver microsomes; conditions: BEA 10 µM, 37 °C, 60 min
Protocol: The objectives of this study were to search for and to identify the metabolites of BEA in liver microsomes from mice, rats, dogs, monkeys and humans by LC-UV-MS^n (n = 1~2) (based on peak intensity ≥ 1% of total drug related components), and to propose its metabolic pathways.
The test compound BEA at 10 µM was incubated with liver microsomes at 37 °C for 60 min. The positive control, 7-ethoxycoumarin (7-EC) at 10 µM, was run concurrently to assess Phase I metabolic activities in liver microsomes. […] After incubation, the samples were analyzed by LC-UV-MS (Table S7). The structures of the metabolites were proposed based on the interpretation of their MS and MS2 data. The results are presented in Table 6 and Figure 6. %Total=Peak Area of a Releted Component/Peak Area of Total Releted Component×100%

CYP2C19 = molecular target: T1, CYP2C19 (Homo sapiens, UniProt P33261); assay: CYP inhibition evaluation in human liver microsomes, CYP2C19 (S-mephenytoin); assay type: in vitro ADME; conditions: HLMs
T1 construct: tissue Corning or Xenotech; host or cells: human liver microsomes (mixed gender)

[3] = PK experiments in rats after intravenous or oral administration; assay type: in vivo, Sprague Dawley rat; conditions: rat, n = 3
Protocol: The PK of BEA were evaluated in cannulated male Sprague Dawley rats following an intravenous infusion (1 h) or oral dosing, with N = 3 for each route of administration. Sprague Dawley rats weighing 210 ± 10 g each were obtained from Vital River Laboratory Animal Technology Co., Ltd. (Beijing, China), and were used for pharmacokinetic assessment. All protocols involving animals were approved by the XBL-China Institutional Animal Care and Use Committee (IACUC No.2020-007). Animals were treated in accordance with the Animal Welfare Act and the “Guide for the Care and Use of Laboratory Animals” (NIH Publication 86-23, revised 1985). The animals were supplied with water and a commercial rodent diet ad libitum prior to study initiation. The rats were administered BEA as an intravenous infusion at a dose of 0.5 mg/kg and orally at a dose of 2 mg/kg, respectively. The animals were dosed via the appropriate route at time 0, and samples were collected at several time points up to 24 h following dose administration. Following intravenous infusion administration, blood samples were collected from the jugular vein cannula at predose as well as at 0.083, 0.25, 0.5, 1, 2, 4, 8, and 24 h postdose of BEA. Following oral dosing, blood samples were collected at predose as well as 0.25, 0.5, 1, 2, 4, 8, and 24 h postdose of BEA. The blood volume at each timepoint was 0.25 mL. Rat plasma samples were separated from the blood samples by centrifugation at 12,000 g for 15 min and stored in the freezer at −80 °C before analysis. Noncompartmental PK parameters such as area under the curve (AUC) and T1/2 were calculated using WinNonlin Professional (version 6.3, Pharsight, Sunnyvale, CA, USA). The absolute oral bioavailability of BEA in rats was calculated by the AUC(0−∞) ratio obtained following oral and i.v. administration. (12) F=AUC0−∞p.o./AUC0−∞i.v.×Dose i.v./Dose p.o.×100
Blood concentration–time curves obtained for each compound were analyzed by means of noncompartmental PK analysis with WinNonlin Professional (version 6.3, Pharsight, Sunnyvale, CA, USA). Following intravenous infusion or bolus administration, the elimination T1/2, total AUC, AUC0−t, systemic blood clearance, and steady-state volume of distribution were calculated using the appropriate noncompartmental model (constant infusion, bolus intravenous injection, and extravascular, respectively). Following oral dosing, Cmax, Tmax, AUC0−t, and AUC0−∞ were calculated. The PK parameters were determined with WinNonlin software using the linear up/log down method in which the linear trapezoidal rule was used any time that the concentration increased, and the logarithmic trapezoidal rule was used any time that the concentration decreased. The summarized PK parameters are reported as the mean ± standard deviation.

[4] = Metabolic stability in cryopreserved hepatocytes, dog; assay type: in vitro ADME, beagle dog
Protocol: as §1, §2, §3, §4

[5] = Metabolic stability in liver microsomes, HLM; assay type: in vitro ADME, human; conditions: scaled from HLM CLint(mic)
Excerpt: […]. […] […]

[6] = Metabolic stability in cryopreserved hepatocytes, human; assay type: in vitro ADME
Protocol: as §1, §2, §3, §4

CYP3A4/5 = conditions: human liver microsomes; cited from earlier work

Beauvericin
CYP3A4 inhibitor class (CYP3A4): potent inhibitor (IC50 < 10 μM—potent inhibitor)
CLint (hep) (μL/min/10^6) ([1]; monkey hepatocytes): 49.4 μL/min/10^6
Remaining % (T = 90 min) ([1]; monkey hepatocytes, 90 min): 10.5%
CLint(liver) ([1]; scaled from monkey hepatocyte CLint): 178.0 mL/min/kg
Detected in liver microsomes: Dog [2]: +
CYP2C19 inhibitor class (CYP2C19): potent inhibitor (IC50 < 10 μM—potent inhibitor)
Fu (%), unbound fraction (monkey plasma proteins): 0.09%
Bound Fraction (%) (monkey plasma proteins; dialysis 5 h, 37 °C, BEA 2 μM, warfarin 1 μM, n = 3): > 90% and 99.91 ± 1.62%
AUC0−∞ ([3]; i.v., 0.5 mg/kg): 356.0 ± 66.7 ng·h/mL
Cmax ([3]; i.v., 0.5 mg/kg): 454.0 ± 110.0 ng/mL
T1/2 ([3]; i.v., 0.5 mg/kg): 5.1 ± 2.6 h
Vd ([3]; i.v., 0.5 mg/kg): 5.9 ± 2.5 L/kg
AUC0−∞ ([3]; p.o., 2 mg/kg): 421.0 ± 61.4 ng·h/mL
Cmax ([3]; p.o., 2 mg/kg): 41.6 ± 0.6 ng/mL
T1/2 ([3]; p.o., 2 mg/kg): 5.9 ± 0.6 h
Tmax ([3]; p.o., 2 mg/kg): 1.0 ± 0 h
T1/2 ([4]; dog hepatocytes, 0.5 × 10^6 cells/mL, 1 μM, n = 2): 0.26 h
Remaining % (T = 90 min) ([4]; dog hepatocytes, 90 min): 1.7%
CLint(liver) ([4]; scaled from dog hepatocyte CLint): 612.5 mL/min/kg
CLint(liver) [5]: < 30 mL/min/kg and 27.8 mL/min/kg
CLint (hep) (μL/min/10^6) ([6]; human hepatocytes): 16.6 μL/min/10^6
Remaining % (T = 90 min) ([6]; human hepatocytes, 90 min): 40.9%
CLint(liver) ([6]; scaled from human hepatocyte CLint): 46.3 mL/min/kg
Inhibition of midazolam 1′-hydroxylase (CYP3A4/5) activity (CYP3A4/5): strongly inhibited; also recorded: strong inhibitor

“And” between values parts separate entries of the source, which are not always exact repeats. Equal entries are not always repeated. “Also recorded” adds a separate entry of the source.
